Experimental findings from US10039816B2, “Siderophore-based immunization against gram-negative bacteria” (Massachusetts Institute of Technology, priority 2014, dated 2018) are described below.

This data set has as its system intestinal microbiota. Briefly: Microbiota analysis (16S rDNA, Illumina MiSeq) of colon content of immunized mice. The class given is in vivo. The conditions noted are these: before infection.

Turning to CTB-Ent, the “effect of immunization on composition of the microbiota” value was “did not alter the composition of the microbiota”. Turning to “Cholera toxin B subunit [CTB, reference compound]”, the “effect of immunization on composition of the microbiota” value is “did not alter the composition of the microbiota”.
